From ChEMBL document CHEMBL4513160, “CO-ADD screening of MMV (CH) - Small Polar Library”

What was measured:
[1] = tested on: Acinetobacter baumannii; test: Antibacterial activity against Acinetobacter baumannii ATCC 19606 (CO-ADD:GN_034); MIC in CAMBH media using NBS plates, by OD600; conditions: Concentration 300.0 ug.mL-1
[2] = tested on: Pseudomonas aeruginosa; test: Antibacterial activity against Pseudomonas aeruginosa PAO397 [PAO1 d(mexAB-oprM) d(mexCD-oprJ) d(mexEF-oprN) d(mexJKL) d(mexXY) d(opmH)] (CO-ADD:GN_211); MIC in CAMBH media using NBS plates, by OD(600); type: functional; conditions: Concentration 300.0 ug.mL-1

Structure (SMILES): NC(CF)c1ccc(F)cc1 (configuration not stated)
- inhibition [1]: 7.81%
- inhibition [2]: 2.83%
